Laboratory results from PubChem BioAssay AID2315 (National Center for Advancing Translational Sciences (NCATS), 2010).
The entries are a selection whose mix differs from that of the whole data set. Some structures show a salt or complex split into parts, the way the source records it. The source made the active and inactive calls. Rule as the data show it: active = inhibition mostly above about 28% (no sharp cut-off); inactive = mostly below about 43%.

Assay: A qHTS for Small Molecule Inhibitors of Shiga Toxin; as to inhibition: 0% is about no effect
Conditions: Vero cells, Shiga toxin protein synthesis inhibition reporter; at 38.7 µM, active compounds read high

Structure (SMILES) | inhibition
CN1CCC(Nc2ccc(F)c(Cl)c2)CC1 | inactive: 22.9%
CCOc1ncccc1C(=O)NCC1(N2CCOCC2)CCCCC1 | inactive: -9.61%
O=C(O)C1(Nc2ccccc2)CCN(Cc2ccccc2)CC1 | inactive: 3.23%
CC(C)(C)OC(=O)N1CCC(Nc2ccccc2)CC1 | inactive: -12.4%
CCCOc1ccc(C(=O)NCC2(N(C)C)CCCCC2)cc1 | inactive: -15.1%
COc1cccc(C(=O)N(c2cc(C)cc(C)c2)C2CCN(C(=O)OC(C)(C)C)CC2)c1 | inactive: 2.55%
COc1cc(OC)cc(C(=O)NCC2(N3CCOCC3)CCCCC2)c1 | inactive: -12.8%
CCC(CO)(C(=O)OC1CN2CCC1CC2)c1ccccc1 (stereo not given) | inactive: -15%
CN1CCC(Nc2ccc(Cl)cc2)CC1 | inactive: -7.91%
CCCOc1ccc(C)cc1CN(CCCl)CCCl | inactive: -12.3%
COc1cc(OC)cc(C(=O)NCC2(N3CCCCC3)CCCCC2)c1 | inactive: -19%
Fc1ccccc1NC1CCN(Cc2ccccc2)CC1 | inactive: -15.2%
CCN1CCC(Nc2cccc(F)c2)CC1 | inactive: -13.9%
CN(C)c1ccc(C(=O)NCC2(N3CCCCC3)CCCCC2)cc1 | inactive: -11.5%
N#Cc1ccc(C(=O)NCC2(N3CCCCC3)CCCCC2)cc1 | inactive: -6.73%
CC(C)(C)OC(=O)N1CCC(N(C(=O)c2ccccc2)c2ccc(Cl)cc2)CC1 | inactive: -7.52%
CCOC(=O)C(CC)C1=NC(C)(C)Cc2ccccc21.O=[N+]([O-])c1cc([N+](=O)[O-])c(O)c([N+](=O)[O-])c1 (stereo not given) | inactive: -1.61%
CN(C)C1(CNC(=O)c2cccc(C#N)c2)CCCCC1 | inactive: -3.1%
CCCN1CCC(Nc2cc(OC)cc(OC)c2)CC1 | inactive: -5.31%
c1ccc(CN2CCC(Nc3ccccc3)CC2)cc1 | inactive: -16.5%

Structure (SMILES) | inhibition
COc1ccc(C(=O)NCC2(N3CCOCC3)CCCCC2)cc1OC | inactive: -6.02%
CCOC(=O)N1CCC(Nc2ccc(C)cc2)CC1 | inactive: -0.925%
N/C(=N\O)c1c(N)no[n+]1[O-] | inactive: 6.39%
O=C(O)c1cccc(Nc2c([N+](=O)[O-])cc([N+](=O)[O-])cc2[N+](=O)[O-])c1 | inactive: 10.9%
O=C(OC1CN2CCC1CC2)C1c2ccccc2C=Cc2ccccc21 (stereo not given) | inactive: -6.06%
CC(C)c1ccc(NC2CCN(C(=O)OC(C)(C)C)CC2)cc1 | active
CN(C)c1cccc(C(=O)NCC2(N3CCCCC3)CCCCC2)c1 | inactive: -6.54%
O=[N+]([O-])c1cc([N+](=O)[O-])c(OC2CCCCC2O)c([N+](=O)[O-])c1 (stereo not given) | inactive: 1.56%
COc1ccc(CN(CCCl)CCCl)cc1Cl | inactive: -2.76%
COc1cc(OC)c(C(=O)NCC2(N(C)C)CCCCC2)cc1OC | inactive: -7.95%
O=C(OC1CN2CCC1CC2)c1ccc([N+](=O)[O-])cc1 (stereo not given) | inactive: 24.7%
COc1ccc2c(c1O)-c1c(O)c(OC)cc3c1[C@H](C2)[N+](C)(C)CC3.O=[N+]([O-])c1cc([N+](=O)[O-])c([O-])c([N+](=O)[O-])c1[O-] | inactive: -5.68%
CCCOc1ccc(C(=O)NCC2(N(C)C)CCCCC2)cc1OC | inactive: -11.2%
O=C(NCC1(N2CCCCC2)CCCCC1)c1ccc(OC(F)F)cc1 | inactive: -6.12%
N#CC1(Nc2ccccc2)CCN(CCc2ccccc2)CC1 | inactive: -3.53%
CCN1CCC(Nc2ccc(Cl)cc2)CC1 | inactive: -4.97%
O=C(NCC1(N2CCCCC2)CCCCC1)c1cccc([N+](=O)[O-])c1 | inactive: -10.4%
O=[N+]([O-])c1cc([N+](=O)[O-])c(NCC2CCS(=O)(=O)C2)c([N+](=O)[O-])c1 (stereo not given) | inactive: -20.9%
O=C(NCC1(N2CCCCC2)CCCCC1)c1cccc(C(F)(F)F)c1 | inactive: 10.2%
O=C(NCC1(N2CCOCC2)CCCCC1)c1cc(=O)[nH]c2ccccc12 | inactive: 1.44%

Structure (SMILES) | inhibition
COc1cc(C(=O)NCC2(N3CCCCC3)CCCCC2)ccc1OC(F)F | inactive: -2.34%
COc1ccc(NC2CCN(C(=O)OC(C)(C)C)CC2)cc1 | inactive: 32.4%
CN1CCN(CCOC(=O)C(O)(c2ccccc2)c2ccccc2)CC1 | inactive: -3.95%
CCOc1ccc(C)cc1CN(CCCl)CCCl | inactive: 10.4%
CCOC(=O)N1CCC(Nc2ccc(F)cc2)CC1 | inactive: -3.48%
COc1ccc(NC2CCN(CCc3ccccc3)CC2)c(OC)c1 | inactive: -13%
O=C(NCC1(N2CCCCC2)CCCCC1)c1ccc(F)cc1 | inactive: -10.8%
Cc1ccc(OCC(C)C)c(CN(CCCl)CCCl)c1 | inactive: 10.8%
COc1cc(C(=O)NCC2(N(C)C)CCCCC2)ccc1OC(F)F | inactive: -3.27%
CCOC(=O)N1CCC(Nc2cccc(C)c2)CC1 | inactive: 0.361%
COc1ccc(C(=O)NCC2(N3CCCCC3)CCCCC2)c(OC)c1OC | inactive: 19.6%
CC(C)(C)OC(=O)N1CCC(N(C(=O)c2ccccc2)c2ccc(F)cc2)CC1 | inactive: -4.37%
COc1ccc(C(=O)NCC2(N3CCCCC3)CCCCC2)cc1 | inactive: 0.847%
O=C(NCC1(N2CCCCC2)CCCCC1)c1ccc(=O)[nH]c1 | inactive: 7.1%
CSc1ccccc1C(=O)NCC1(N2CCCCC2)CCCCC1 | inactive: -7.75%
Cc1cc(C)cc(N(C(=O)c2ccccc2)C2CCN(C(=O)OC(C)(C)C)CC2)c1 | inactive: -14.6%
O=C(NCC1(N2CCOCC2)CCCCC1)c1cc2ccccc2o1 | inactive: -20.9%
O=C(OC1CN2CCC1CC2)C1c2ccccc2Oc2ccccc21 (stereo not given) | inactive: -10.7%
N#CC1(Nc2ccccc2)CCN(Cc2ccccc2)CC1 | inactive: -10.5%
CCOC(=O)N1CCC(Nc2ccc(OC)cc2)CC1 | inactive: -9.31%
